PubChem BioAssay AID504761 | Drosophila RNAi Screening Center | 2011
Assay: 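Genome-wide fly cell screen for genes dengue virus requires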 (primary screen). Cells: D.Mel-2 cells from Drosophila. Reagents: long dsRNA against Drosophila genes. Treatment: infection with dengue virus type 2; dose and infection time not stated. Measured: 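Cells stained for dengue envelope protein and imaged; percent of infected cells per well on duplicate plates, ranked by infection, with stained nuclei counted for cell number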. Scale: infection score: higher = more virus-infected cells; cell count: higher = more cells in the well. Active means: 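Low infection ranks in the two replicates (chance level up to 0.065) followed by a retest with a 1.5-fold or larger significant decrease, p below 0.05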. Calls: active = confirmed: knock-down lowers infection; inactive = not picked or not confirmed.
The deposit covers about 22,000 reagents; shown is a random part of those that have a named target and a result. Of all reagents, 116 (0.52%) were called active. 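Calls depend on retest data that are not deposited; infection was ranked per plate without normalising between plates; the unit of the infection score is not given.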 The raw values are shown without normalisation. Unmarked entries are inactive. The record does not give: the amount of reagent, the time to read-out.

Knock-down of CG14983 (GeneID 38466) [DRSC08441] resulted in: infection score, replicate 1 = 1.38; infection score, replicate 2 = 8.02; cell count, replicate 1 = 6818; cell count, replicate 2 = 6411.
With knock-down of CG14983 (GeneID 38466) [DRSC26428], the screen gave infection score, replicate 1 = 3.41; infection score, replicate 2 = 2.9; cell count, replicate 1 = 6387; cell count, replicate 2 = 6027.
Against peng (GeneID 33112) [DRSC20583] the deposit lists infection score, replicate 1 = 11.2; infection score, replicate 2 = 6.86; cell count, replicate 1 = 6148; cell count, replicate 2 = 5701.
Depletion of peng (GeneID 33112) [DRSC29638] came out at: infection score, replicate 2 = 24.9; cell count, replicate 1 = 323; cell count, replicate 2 = 5615.
Against 5-HT2B (GeneID 41017) [DRSC16360], the entry reads infection score, replicate 1 = 12.5; infection score, replicate 2 = 21.3; cell count, replicate 1 = 6467; cell count, replicate 2 = 5941.
For 5-HT2B (GeneID 41017) [DRSC16362], the entry reads infection score, replicate 1 = 7.84; infection score, replicate 2 = 4.33; cell count, replicate 1 = 6745; cell count, replicate 2 = 4138.
With knock-down of 5-HT2B (GeneID 41017) [DRSC25577], the screen gave infection score, replicate 1 = 22.4; infection score, replicate 2 = 1.83; cell count, replicate 1 = 6282; cell count, replicate 2 = 6611.
TM9SF2 (GeneID 35335) [DRSC03197] gave infection score, replicate 1 = 21.5; infection score, replicate 2 = 23.1; cell count, replicate 1 = 6308; cell count, replicate 2 = 5700.
chico (GeneID 64880) [DRSC03531] gave infection score, replicate 1 = 20.6; infection score, replicate 2 = 6.95; cell count, replicate 1 = 6061; cell count, replicate 2 = 6561.
After knock-down of CG32695 (GeneID 31918) [DRSC17975], the record shows infection score, replicate 1 = 10.7; infection score, replicate 2 = 8.73; cell count, replicate 1 = 6254; cell count, replicate 2 = 6334.
Against CG13996 (GeneID 33842) [DRSC02328], the entry reads infection score, replicate 1 = 6.16; infection score, replicate 2 = 5.92; cell count, replicate 1 = 5857; cell count, replicate 2 = 5793.
After knock-down of dj-1beta (GeneID 43652) [DRSC14599], the screen gave infection score, replicate 1 = 5.58; infection score, replicate 2 = 3.58; cell count, replicate 1 = 6147; cell count, replicate 2 = 726.
Depletion of dj-1beta (GeneID 43652) [DRSC25743] gave: infection score, replicate 1 = 3.44; infection score, replicate 2 = 4.23; cell count, replicate 1 = 6623; cell count, replicate 2 = 6241.

A portion from the list above, for reference:
dj-1beta (GeneID 43652) [DRSC14599]: infection score, replicate 1 = 5.58; infection score, replicate 2 = 3.58; cell count, replicate 1 = 6147; cell count, replicate 2 = 726
dj-1beta (GeneID 43652) [DRSC25743]: infection score, replicate 1 = 3.44; infection score, replicate 2 = 4.23; cell count, replicate 1 = 6623; cell count, replicate 2 = 6241
